Tested on: wild-type Zaire EBOV Mayinga 1976 strain (EBOV May)
Conditions: selectivity index with EBOV May EC50

O=C(Nc1ccccc1)c1ccc(-c2cccc(OC3CCNCC3)c2)s1 [compound 53, N-Phenyl-5-(3-(piperidin-4-yloxy)phenyl)thiophene-2-carboxamide]
SI (CC50/EC50): 113

From paper PMC11440591 (Journal of Medicinal Chemistry, 2024)
